Assay results from patent US6261814A, “Carboxylic acid reductase, and methods of using same” (University of Iowa Research Foundation, priority 1998, dated 2001).

System: Nocardia sp. NRRL 5646
Test: Growing cell transformation of vanillic acid (HPLC quantification)
Assay type: cell-based
Conditions: growing culture, 48 hours

## COc1cc(C(=O)O)ccc1O [vanillic acid, 4-hydroxy-3-methoxybenzoic acid]
  substrate decarboxylated to give guaiacol: 69%
  substrate reduced to vanillyl alcohol as the final product: 11%
  vanillic acid metabolized: almost all
